{
  "sequences": {"note": "The chains behind the UniProt entries cited, without tags or fusion partners. Where a name states a change or a piece, a line headed by the entry shows the natural chain unless it says otherwise.", "UniProt O96693": "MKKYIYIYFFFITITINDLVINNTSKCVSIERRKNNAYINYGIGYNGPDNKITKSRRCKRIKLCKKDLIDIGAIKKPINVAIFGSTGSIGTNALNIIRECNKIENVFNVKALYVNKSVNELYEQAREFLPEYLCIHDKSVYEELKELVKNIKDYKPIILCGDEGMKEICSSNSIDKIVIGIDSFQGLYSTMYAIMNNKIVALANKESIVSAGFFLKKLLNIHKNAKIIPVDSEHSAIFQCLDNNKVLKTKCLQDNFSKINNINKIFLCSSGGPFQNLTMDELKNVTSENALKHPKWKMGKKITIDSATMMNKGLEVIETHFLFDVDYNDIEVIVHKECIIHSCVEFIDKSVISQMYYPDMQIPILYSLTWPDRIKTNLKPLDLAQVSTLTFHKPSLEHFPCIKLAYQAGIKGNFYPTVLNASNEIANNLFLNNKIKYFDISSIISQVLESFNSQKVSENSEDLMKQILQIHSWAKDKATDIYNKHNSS"},
  "source": "patent US12122799B2",
  "about": "“Antibiotics for veterinary staphylococcal infections” (THE GEORGE WASHINGTON UNIVERSITY, A CONGRESSIONALLY …, priority 2018, dated 2024)",
  "key": {"S. schleferi": {"test_system": "S. schleferi", "assay": "Minimum bactericidal (MBC) assay", "type": "cell-based, S. schleiferi", "details": "FIG. 1; at IC50 and 10×IC50, 24 h"}, "P. falciparum DXR": {"target": "P. falciparum DXR (Plasmodium falciparum (isolate HB3), UniProt O96693)", "details": "read-out: P. falciparum DXR IC50; background; cited from earlier work"}, "S. chromogenes [1]": {"test_system": "S. chromogenes", "assay": "Minimum bactericidal (MBC) assay", "type": "cell-based", "details": "FIG. 1; at IC50 and 10×IC50, 24 h"}, "S. pseudintermedius [2]": {"test_system": "S. pseudintermedius", "assay": "Minimum bactericidal (MBC) assay", "type": "cell-based", "details": "FIG. 1; at IC50 and 10×IC50, 24 h"}, "P. falciparum": {"test_system": "P. falciparum", "details": "read-out: inhibition of P. falciparum growth IC50; background; cited from earlier work"}, "S. chromogenes [3]": {"test_system": "S. chromogenes", "assay": "Growth inhibition of Staphylococcus species assay", "type": "cell-based", "details": "read-out: Bacterial IC50 (Mean ± SD) S.c., LB media, 20 h, OD600"}, "S. schleiferi": {"test_system": "S. schleiferi", "assay": "Growth inhibition of Staphylococcus species assay", "type": "cell-based", "details": "read-out: Bacterial IC50 (Mean ± SD) S.s., LB media, 20 h, OD600"}, "S. aureus": {"test_system": "S. aureus", "assay": "Growth inhibition of Staphylococcus species assay", "type": "cell-based", "details": "read-out: Bacterial IC50 (Mean ± SD) S.a., LB media, 20 h, OD600"}, "S. pseudintermedius [4]": {"test_system": "S. pseudintermedius", "assay": "Growth inhibition of Staphylococcus species assay", "type": "cell-based", "details": "read-out: Bacterial IC50 (Mean ± SD) S.p., LB media, 20 h, OD600"}},
  "data": [
    {"substance": "FR-900098", "values": [
      {"measurement": "bacteriostatic or bactericidal in S. schleferi", "setting": "S. schleferi", "result": "bacteriostatic"},
      {"measurement": "IC50", "setting": "P. falciparum DXR", "result": 24, "unit": "nM"},
      {"measurement": "bacteriostatic or bactericidal in S. chromogenes", "setting": "S. chromogenes [1]", "result": "bacteriostatic"},
      {"measurement": "bacteriostatic or bactericidal in S. pseudintermedius", "setting": "S. pseudintermedius [2]", "result": "bacteriostatic"},
      {"measurement": "IC50", "setting": "P. falciparum", "result": "90 to 350", "unit": "nM"},
      {"measurement": "IC50", "setting": "S. chromogenes [3]", "result": 17.3, "unit": "µM"},
      {"measurement": "IC50", "setting": "S. schleiferi", "result": 41.1, "unit": "µM"},
      {"measurement": "IC50", "setting": "S. aureus", "result": "> 100", "unit": "µM"},
      {"measurement": "IC50", "setting": "S. pseudintermedius [4]", "result": 34.1, "unit": "µM"}
    ]}
  ]
}
